Patent US20170100396A1 (priority 2015, published 2017)

target: PB2 cap binding domain (PB2-CBD) (residues 318-483) (Influenza A virus (A/duck/Shantou/4610/2003(H5N1)), UniProt Q2LG68); assay: Cap Fluorescence-Polarization Ligand Displacement (CapFP-LD) assay (Fp); design: species or system avian influenza strain A/duck/Shantou/4610/2003(H5N1); conditions: read-out: Fp Ki; m7GTP-5FAM tracer displacement from PB2-CBD

| SMILES | Ki |
| --- | --- |
| CS(=O)(=O)CCNC(=O)c1c[nH]c2ncc(-c3ccccc3Cl)nc12 | > 655 µM |
| CC(C)C[C@@H](NC(=O)c1c[nH]c2ncc(C3CC3)nc12)C(=O)N1CCCC1 | 0.7 µM |
| O=C(N[C@@H](C(=O)N1CCN(Cc2ccccc2)CC1)C1CC1)c1c[nH]c2ncc(C3CC3)nc12 | 165 µM |
| CC(C)C[C@@H](NC(=O)c1c[nH]c2ncc(C3CC3)nc12)C(=O)NCC(=O)Nc1ccccc1 | 4.87 µM |
| CC(C)C[C@@H](NC(=O)c1c[nH]c2ncc(C3CC3)nc12)C(=O)NCC(=O)NCc1ccccn1 | 5.53 µM |
| N#CC(NC(=O)[C@H](NC(=O)c1c[nH]c2ncc(C3CC3)nc12)C1CC1)c1ccc(C(F)(F)F)cc1 (some centres unmarked) | 74.4 µM |
| O=C(N[C@@H](C(=O)NCc1cc(Cl)cc(Cl)c1)C1CC1)c1c[nH]c2ncc(C3CC3)nc12 | > 7.8 µM |
| CC(C)C[C@@H](NC(=O)c1c[nH]c2ncc(C3CC3)nc12)C(=O)NCCC(=O)NC1CCCC1 | 12.2 µM |
| O=C(N[C@@H](C(=O)N1CCCC1)C1CC1)c1c[nH]c2ncc(C3CC3)nc12 | 26.9 µM |
| O=C(N[C@@H](C(=O)NCCC(=O)N1CCS(=O)(=O)CC1)C1CC1)c1c[nH]c2ncc(C3CC3)nc12 | 75.1 µM |
| O=C(N[C@@H](C(=O)NCc1ccccc1F)C1CC1)c1c[nH]c2ncc(C3CC3)nc12 | 68.9 µM |
| O=C(N[C@@H](C(=O)NCC(=O)N1CCS(=O)(=O)CC1)C1CC1)c1c[nH]c2ncc(C3CC3)nc12 | 11.9 µM |
| O=C(N[C@@H](C(=O)N1CCCCC1)C1CC1)c1c[nH]c2ncc(C3CC3)nc12 | 4.4 µM |
| CC(C)C[C@@H](NC(=O)c1c[nH]c2ncc(C3CC3)nc12)C(=O)N1CC2(CNC2)C1 | 5.13 µM |
| O=C(NCC(=O)N1CCCC1)c1c[nH]c2ncc(C3CC3)nc12 | 2.7 µM |
| COc1ccc(NC(=O)[C@H](NC(=O)c2c[nH]c3ncc(C4CC4)nc23)C2CC2)cc1 | 35.9 µM |
| CCCNC(=O)c1c[nH]c2ncc(C(C)C)nc12 | 65.7 µM |
| O=C(N[C@@H](C(=O)NCc1cccc(F)c1)C1CC1)c1c[nH]c2ncc(C3CC3)nc12 | 57 µM |
| CC(C)C[C@@H](NC(=O)c1c[nH]c2ncc(C3CC3)nc12)C(=O)N1CC2(CN(C(=O)OC(C)(C)C)C2)C1 | 1.06 µM |
| CC(C)C[C@@H](NC(=O)c1c[nH]c2ncc(C3CC3)nc12)C(=O)NCCC(=O)NCc1ccccn1 | 7.85 µM |
| O=C(N[C@@H](C(=O)NCCC(=O)N1CCCC1)C1CC1)c1c[nH]c2ncc(C3CC3)nc12 | 17.6 µM |
| O=C(N[C@@H](C(=O)N1CC(F)(F)C1)C1CC1)c1c[nH]c2ncc(C3CC3)nc12 | 6 µM |
| O=C(N[C@@H](C(=O)N1CCC2(CCN(Cc3ccccc3)C2=O)C1)C1CC1)c1c[nH]c2ncc(C3CC3)nc12 (some centres unmarked) | 11.3 µM |
| CC(C)c1cnc2[nH]cc(C(=O)NC3CCOC3(C)C)c2n1 (centres unmarked) | 241 µM |
| CC1(CNC(=O)c2c[nH]c3ncc(-c4ccccc4Cl)nc23)CCC(=O)N1 (centres unmarked) | 907 µM |
| CCN(C)C(=O)c1c[nH]c2ncc(C(C)C)nc12 | > 1000 µM |

| SMILES | Ki |
| --- | --- |
| Cc1ccc(CNC(=O)c2c[nH]c3ncc(C(C)C)nc23)nn1 | 14.1 µM |
| CC(C)C[C@@H](NC(=O)c1c[nH]c2ncc(C3CC3)nc12)C(=O)NCC(=O)NCc1ccccc1 | 6.82 µM |
| COCCN(CCOC)C(=O)c1c[nH]c2ncc(C(C)C)nc12 | > 1000 µM |
| O=C(N[C@H](C(=O)N1CCCC1)C1CC1)c1c[nH]c2ncc(C3CC3)nc12 | 0.14 µM |
| O=C(N[C@@H](C(=O)N1CCc2ccccc2C1)C1CC1)c1c[nH]c2ncc(C3CC3)nc12 | 20 µM |
| CC(C)c1cnc2[nH]cc(C(=O)NCC(F)(F)F)c2n1 | 170 µM |
| CC(C)C[C@@H](NC(=O)c1c[nH]c2ncc(C3CC3)nc12)C(=O)NC1CCCc2ccccc21 (some centres unmarked) | ≥ 125 µM |
| COc1ccc(CNC(=O)[C@H](NC(=O)c2c[nH]c3ncc(C4CC4)nc23)C2CC2)cc1 | 40.6 µM |
| O=C(N[C@@H](C(=O)NC1CCCc2ccccc21)C1CC1)c1c[nH]c2ncc(C3CC3)nc12 (some centres unmarked) | 53.3 µM |
| CC(C)(NC(=O)c1c[nH]c2ncc(C3CC3)nc12)C(=O)N1CCCC1 | 265 µM |
| CC(C)c1cnc2[nH]cc(C(=O)NC(C)C(C)(C)O)c2n1 (centres unmarked) | > 1000 µM |
| CC(C)C[C@@H](NC(=O)c1c[nH]c2ncc(C3CC3)nc12)C(=O)NCCC(=O)NCc1ccccc1 | 8.32 µM |
| O=C(N[C@@H](C(=O)NCc1ccc(Cl)cc1)C1CC1)c1c[nH]c2ncc(C3CC3)nc12 | 178 µM |
| O=C(N[C@@H](C(=O)N1CCC[C@@H](C(=O)N2CCCCC2)C1)C1CC1)c1c[nH]c2ncc(C3CC3)nc12 | 4.8 µM |
| COc1ccc(C(C#N)NC(=O)[C@H](NC(=O)c2c[nH]c3ncc(C4CC4)nc23)C2CC2)cc1 (some centres unmarked) | > 125 µM |
| O=C(N[C@@H](C(=O)N1CCC[C@@H](C(=O)N2CCCC2)C1)C1CC1)c1c[nH]c2ncc(C3CC3)nc12 | 3.5 µM |
| O=C(N[C@@H](C(=O)N1CC2(CCC2)C1)C1CC1)c1c[nH]c2ncc(C3CC3)nc12 | 15.4 µM |
| O=C(N[C@@H](C(=O)N1CCC[C@H](C(=O)N2CCOCC2)C1)C1CC1)c1c[nH]c2ncc(C3CC3)nc12 | 5.7 µM |
| O=C(N[C@@H](C(=O)N1CC2(COC2)C1)C1CC1)c1c[nH]c2ncc(C3CC3)nc12 | 1.9 µM |
| CC(C)c1cnc2[nH]cc(C(=O)NCCCN3CCOCC3)c2n1 | 37.4 µM |
| O=C(N[C@@H](C(=O)N1CCC[C@H](C(=O)N2CCCCC2)C1)C1CC1)c1c[nH]c2ncc(C3CC3)nc12 | 8.5 µM |
| O=C(N[C@@H](C(=O)NCCC(=O)N1CCCCC1)C1CC1)c1c[nH]c2ncc(C3CC3)nc12 | 63.5 µM |
| O=C(N[C@@H](C(=O)NCc1ccc(F)cc1)C1CC1)c1c[nH]c2ncc(C3CC3)nc12 | > 31.2 µM |
| O=C(N[C@@H](C(=O)NCc1cccnc1)C1CC1)c1c[nH]c2ncc(C3CC3)nc12 | 18.7 µM |
| O=C(N[C@@H](C(=O)N1CCOCC1)C1CC1)c1c[nH]c2ncc(C3CC3)nc12 | 6.2 µM |
| CC(C)NC(=O)c1c[nH]c2ncc(-c3ccccc3C(F)(F)F)nc12 | ≥ 62.5 µM |

| SMILES | Ki |
| --- | --- |
| CN1CCN(C(=O)CCNC(=O)[C@H](NC(=O)c2c[nH]c3ncc(C4CC4)nc23)C2CC2)CC1 | 60.1 µM |
| O=C(N[C@@H](C(=O)NCc1ccccc1Cl)C1CC1)c1c[nH]c2ncc(C3CC3)nc12 | > 125 µM |
| O=C(N[C@@H](C(=O)NCc1ccncc1)C1CC1)c1c[nH]c2ncc(C3CC3)nc12 | 51.5 µM |
| CC(C)c1cnc2[nH]cc(C(=O)NC3CCCCC3O)c2n1 (centres unmarked) | 195 µM |
| O=C(N[C@@H](C(=O)Nc1ccccc1)C1CC1)c1c[nH]c2ncc(C3CC3)nc12 | 27 µM |
| CC(C)C[C@@H](NC(=O)c1c[nH]c2ncc(C3CC3)nc12)C(=O)NCC(=O)NC1CCCC1 | 2.53 µM |
| O=C(N[C@@H](C(=O)NCc1cccc(Cl)c1)C1CC1)c1c[nH]c2ncc(C3CC3)nc12 | > 62.5 µM |
| O=C(NCC(=O)N1CCCC1)c1c[nH]c2ncc(Br)nc12 | 9.2 µM |
| O=C(N[C@@H](C(=O)NCCC(=O)N1CCOCC1)C1CC1)c1c[nH]c2ncc(C3CC3)nc12 | 45.6 µM |
| O=C(N[C@@H](C(=O)NCc1ccc(Cl)c(Cl)c1)C1CC1)c1c[nH]c2ncc(C3CC3)nc12 | > 125 µM |
| N#CC(Cc1ccccc1)NC(=O)c1c[nH]c2ncc(C3CC3)nc12 (centres unmarked) | 9.25 µM |
| O=C(N[C@@H](C(=O)NCCc1ccc(Cl)cc1)C1CC1)c1c[nH]c2ncc(C3CC3)nc12 | 68.2 µM |
| O=C(N[C@@H](C(=O)NCC(=O)N1CCCC1)C1CC1)c1c[nH]c2ncc(C3CC3)nc12 | 13.2 µM |
| O=C(N[C@@H](C(=O)N1CCC[C@@H](C(=O)N2CCOCC2)C1)C1CC1)c1c[nH]c2ncc(C3CC3)nc12 | 6.4 µM |
| O=C(N[C@@H](C(=O)N1CCC[C@H](C(=O)N2CCCC2)C1)C1CC1)c1c[nH]c2ncc(C3CC3)nc12 | 6.9 µM |
| O=C(N[C@@H](C(=O)NCc1ccc(C(F)(F)F)cc1)C1CC1)c1c[nH]c2ncc(C3CC3)nc12 | > 125 µM |
| CC(C)c1cnc2[nH]cc(C(=O)N3CCC(F)(F)CC3)c2n1 | > 1000 µM |
| O=C(N[C@@H](C(=O)NCc1ccccc1)C1CC1)c1c[nH]c2ncc(C3CC3)nc12 | 37.3 µM |
| O=C(N[C@@H](C(=O)NCc1ccc(OC(F)(F)F)cc1)C1CC1)c1c[nH]c2ncc(C3CC3)nc12 | > 125 µM |
| CC(C)c1cnc2[nH]cc(C(=O)NC3(C#N)CC3)c2n1 | 38.1 µM |
| O=C(N[C@@H](C(=O)NCc1ccc(F)c(F)c1)C1CC1)c1c[nH]c2ncc(C3CC3)nc12 | > 31.2 µM |
| O=C(N[C@@H](C(=O)NCCc1ccccc1)C1CC1)c1c[nH]c2ncc(C3CC3)nc12 | 16.2 µM |
| CC(C)C[C@@H](NC(=O)c1c[nH]c2ncc(C3CC3)nc12)C(=O)NCCC(=O)Nc1ccccc1 | 13.9 µM |
| O=C(N[C@@H](C(=O)NCC(=O)N1CCOCC1)C1CC1)c1c[nH]c2ncc(C3CC3)nc12 | 24.5 µM |
| COc1ccc(CCNC(=O)[C@H](NC(=O)c2c[nH]c3ncc(C4CC4)nc23)C2CC2)cc1 | 98.4 µM |
